# Reference: patent US6706740B2, “Fungicidal heterocyclic aromatic amides and their compositions, methods of use and preparation” (Dow AgroSciences LLC, priority 1999, dated 2004)
# Columns and labels:
# [1] = system: Leptosphaeria nodorum—LEPTNO; test: Glume Blotch of Wheat, in vivo whole plant, 24 Hour Protectant; settings: 100 ppm spray, % control of fungal infection vs untreated plants
# [2] = system: Plasmopara viticola—PLASVI; test: Downy Mildew of Grape, in vivo whole plant, 24 Hour Protectant; settings: 100 ppm, % control of fungal infection vs untreated plants
# [3] = system: Puccinia recondita—PUCCRT; test: Brown Rust of Wheat, in vivo whole plant, 24 Hour Protectant; settings: 100 ppm spray, % control of fungal infection vs untreated plants
# Erysiphe graminis—ERYSGT = test: Powdery Mildew of Wheat, in vivo whole plant, 24 Hour Protectant; settings: 100 ppm spray, % control of fungal infection vs untreated plants
# [4] = system: Phytophthora infestans—PHYTIN; test: Late Blight of Tomato, in vivo whole plant, 24 Hour Protectant; settings: 100 ppm spray, % control of fungal infection vs untreated plants
# Septoria tritici—SEPTTR = test: Leaf Blotch of Wheat, in vivo whole plant, 24 Hour Protectant; settings: 100 ppm spray, % control of fungal infection vs untreated plants
compound,measurement,setting,value
COc1ccnc(C(=O)N[C@H]2COC(=O)[C@H](Cc3ccccc3)[C@@H](OC(=O)C(C)C)[C@H](C)OC2=O)c1OC(=O)N(C)C,LEPTNO in vivo 1 Day Protectant,[1],+ +
same,PLASVI in vivo 1 Day Protectant,[2],− (<25% control of fungal infection)
same,PUCCRT in vivo 1 Day Protectant,[3],+ +
same,ERYSGT in vivo 1 Day Protectant,Erysiphe graminis—ERYSGT,− (<25% control of fungal infection)
same,PHYTIN in vivo 1 Day Protectant,[4],− (<25% control of fungal infection)
same,SEPTTR in vivo 1 Day Protectant,Septoria tritici—SEPTTR,+ +
